Results on two substances are retold here after patent publication US4810630A, “Use of polyoxyethylene ethers to improve the performance of immunoassays employing peroxidase conjugates” (priority 1987, dated 1989).

Data set [1] deals with N. gonorrhea. In words: Microtiter plate enzyme immunoassay: optimization of coating antibody concentration with detergent in assay buffer. Set-up: species or system Neisseria gonorrhea. The method, then:
Samples were treated 1.0N NaOH and neutralized with assay buffer as described in Example 1, above. For this assay, 0.100 mL aliquots of the treated, neutralized sample were transferred to the wells of a 96-well microtiter plate which had been previously incubated with an optimized concentration of anti-N. gonorrhea antibody diluted in phosphate buffered saline for 90-120 minutes, drained, then blocked with a solution containing 1.0% bovine serum albumin and 20% sucrose in phosphate buffered saline for 2 hours and dried in vacuo. The aliquots were permitted to incubate in the microtiter plate wells for 90 minutes at room temperature,then drained and washed with phosphate buffered saline containing 0.05% Tween® 20. Horseradish peroxidase conjugated anti-N. gonorrhea, 100 μL of an optimized concentration, was then added to each well and the plate again incubated for 1 hour at room temperature. The plate was then drained and washed as above. A 100 μL portion of the substrate/chromogen solution described in Example 1, above, was then added to each well and incubated for 10 minutes at room temperature. The absorbance of each well was then determined at 630 nm, and corrected for the absorbance at 490 nm.
Antibody specific for Neisseria gonorrhea was used to coat the wells of microtiter plates at varying concentrations in phosphate buffered saline, as described above. A comparison of the optimal antibody concentration in assays using Tween® 20 or Triton® X-100 was made by testing a single concentration of N. gonorrhea in wells previously coated, blocked, and dried as described above. The optimum concentration of antibody is identified as that which yields the maximum signal in the assay with a minimal background response. Table 4 lists the results of such experiments using Tween® 20 and Triton® X-100 as detergents in the assay buffer.

In data set [2] the test system is N. gonorrhea. In words: Dipstick enzyme immunoassay (peroxidase conjugate) for N. gonorrhea with detergent: signal and signal to noise ratio. Set-up: species or system Neisseria gonorrhea. The settings on record: for Sample Absorbance, Positive (Signal): mean of triplicate.
[3] abbreviates: 0.200% detergent, N. gon. + 0 μL blood.
[4] abbreviates: 0.200% detergent, N. gon. + 50 μL blood.
The mark [5] stands for this setting: 0.20% detergent, with 50 μL blood.

With “polyoxyethylene-octylphenoxy [Triton ® X-100]”, the “Absorbance Background” value in the data set with N. gonorrhea [1] (coating antibody 0.20 μg/well) is 0.016; in the data set on N. gonorrhea [1] (coating antibody 0.30 μg/well) it was 0.016; with N. gonorrhea [1] (coating antibody 0.35 μg/well), 0.019; with N. gonorrhea [1] (coating antibody 0.40 μg/well), 0.022; with N. gonorrhea [1] (coating antibody 0.45 μg/well), 0.021; with N. gonorrhea [1] (coating antibody 0.5 μg/well) it was 0.020. Further, in the data set with N. gonorrhea [1] (coating antibody 0.60 μg/well), the “Absorbance Background” value is 0.019. Besides, the Signal/Noise with N. gonorrhea [2] (0.05% detergent, with 50 μL blood) is 1.08; in the data set on N. gonorrhea [2] (0.05% detergent, without blood), 41.8; in the data set on N. gonorrhea [2] (0.10% detergent, with 50 μL blood), 4.11; with N. gonorrhea [2] (0.10% detergent, without blood) it was 77.5; in the data set with N. gonorrhea [2] (setting [5]), 3.51; in the data set with N. gonorrhea [2] (0.20% detergent, without blood), 78.7. For the same substance, the Signal/Noise in the data set on N. gonorrhea [2] (0.25% detergent, with 50 μL blood) was 18.5; in the data set on N. gonorrhea [2] (0.25% detergent, without blood) it was above 71; with N. gonorrhea [2] (0.30% detergent, with 50 μL blood), 24.1; in the data set on N. gonorrhea [2] (0.30% detergent, without blood), above 108. Moreover, the “Sample Absorbance, Positive (Signal)” value with N. gonorrhea [2] (0.100% detergent, N. gon. + 0 μL blood) is listed as 1.550; with N. gonorrhea [2] (0.100% detergent, N. gon. + 50 μL blood), 0.390; in the data set on N. gonorrhea [2] (setting [3]), 1.653; in the data set on N. gonorrhea [2] (setting [4]), 0.498; in the data set on N. gonorrhea [2] (0.300% detergent, N. gon. + 0 μL blood) it was above 1.836; in the data set on N. gonorrhea [2] (0.300% detergent, N. gon. + 50 μL blood) it was 1.083.
For “polyoxyethylene-sorbitan monolaurate [Tween ® 20]”, the “Absorbance Background” value in the data set with N. gonorrhea [1] (coating antibody 0.05 μg/well) turned out to be 0.001; in the data set on N. gonorrhea [1] (coating antibody 0.1 μg/well), 0.005; with N. gonorrhea [1] (coating antibody 0.5 μg/well), 0.013; in the data set with N. gonorrhea [1] (coating antibody 0.8 μg/well), 0.018; in the data set with N. gonorrhea [1] (coating antibody 1.0 μg/well) it was 0.050; with N. gonorrhea [1] (coating antibody 1.5 μg/well) it was 0.022. Also, in the data set with N. gonorrhea [1] (coating antibody 2.0 μg/well), the “Absorbance Background” value stood at 0.034. The “Sample Absorbance, Positive (Signal)” value in the data set on N. gonorrhea [2] (0.075% detergent, N. gon. + 0 μL blood) was 0.275; with N. gonorrhea [2] (0.075% detergent, N. gon. + 50 μL blood) it was 0.473; in the data set with N. gonorrhea [2] (0.125% detergent, N. gon. + 0 μL blood), 0.434; in the data set on N. gonorrhea [2] (0.125% detergent, N. gon. + 50 μL blood), 0.520; in the data set on N. gonorrhea [2] (setting [3]), 0.794; in the data set with N. gonorrhea [2] (setting [4]), 0.607. The Signal/Noise in the data set on N. gonorrhea [2] (0.075% detergent, with 50 μL blood) is 0.94; in the data set with N. gonorrhea [2] (0.075% detergent, without blood), 9.48; in the data set with N. gonorrhea [2] (0.125% detergent, with 50 μL blood), 1.02; in the data set on N. gonorrhea [2] (0.125% detergent, without blood), 21.7; with N. gonorrhea [2] (setting [5]), 2.42; with N. gonorrhea [2] (0.20% detergent, without blood), 24.8.
